Results: patent publication US20220033522A1 (Janssen / Centocor, published 2022)

Target: polymeric immunoglobulin receptor (pIgR), his-tagged (human, UniProt P01833 19-638)
Assay: BLI (Octet), his-tagged pIgR on anti-His biosensor

B1: SAD-S35 (antibody, human IgG1, kappa, V domains shown)
VH: QVQLVESGGGLVQPGGSLRLSCAASGITVSSNYMSWVRQAPGKGLEWVSVIYSGGSTYYADSVKGRFSISRDNSKNTLYLQMNSLRAEDTAVYYCARDLQERGGMDVWGQGTTVTVSS
VL: not shown
notes: also called Acro Biosystems cat. #SAD-S35
B1: no binding (tested: 10 µg/mL).
